Values from PubChem BioAssay AID504761 (Drosophila RNAi Screening Center, 2011)

- Purpose: 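Fly genes whose silencing reduces dengue virus type 2 infection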 (primary screen)
- System: D.Mel-2 cells from Drosophila
- Reagents: long dsRNA against Drosophila genes
- Conditions: infection with dengue virus type 2; dose and infection time not stated
- Detection: 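Per well on two replicate plates, imaging gave the percent of cells positive for viral envelope protein, ranked by infection, and a nuclear count of cells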
- Direction: infection score: higher = more virus-infected cells; cell count: higher = more cells in the well
- Hit rule: 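Low infection ranks in the two replicates (chance level up to 0.065) followed by a retest with a 1.5-fold or larger significant decrease, p below 0.05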
- Meaning of the calls: active = confirmed: knock-down lowers infection; inactive = not picked or not confirmed
The deposit covers about 22,000 reagents; below is a random part of those that have a named target and a result. Of all reagents, 116 (0.52%) were called active. 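Calls depend on retest data that are not deposited; infection was ranked per plate without normalising between plates; the unit of the infection score is not given.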 Raw values vary from plate to plate and are shown uncorrected. Unmarked entries are inactive. Reagents against one gene are numbered here. Further read-outs or replicates are left out here. Not given: the amount of reagent, the time to read-out.

With knock-down of hyx, the record shows infection score, replicate 1 = 23.1; cell count, replicate 1 = 2199.
Depletion of Miro came out at: infection score, replicate 1 = 2.98; cell count, replicate 1 = 6169.
After knock-down of Jon65Aiii #1, the record shows infection score, replicate 1 = 5.62; cell count, replicate 1 = 6423.
Against Jon65Aiii #2, the values are infection score, replicate 1 = 3.27; cell count, replicate 1 = 5848.
Knock-down of Or94b #1 came out at: infection score, replicate 1 = 1.25; cell count, replicate 1 = 6263.
Or94b #2 scored infection score, replicate 1 = 8.82; cell count, replicate 1 = 6893.
After knock-down of Idgf6 #1, the record shows infection score, replicate 1 = 3.12; cell count, replicate 1 = 6373.
Idgf6 #2 gave infection score, replicate 1 = 5.15; cell count, replicate 1 = 5745.
l(3)72Dn gave infection score, replicate 1 = 6.05; cell count, replicate 1 = 3093.
With knock-down of ND-PDSW, the screen gave infection score, replicate 1 = 0.7 (active); cell count, replicate 1 = 6153.
CG14313 scored infection score, replicate 1 = 1.54; cell count, replicate 1 = 6486.
CG15347 scored infection score, replicate 1 = 2.37; cell count, replicate 1 = 6245.
CG14286 #1 showed infection score, replicate 1 = 4.96; cell count, replicate 1 = 6579.
For CG14286 #2, the entry reads cell count, replicate 1 = 342.
Depletion of Seipin resulted in: infection score, replicate 1 = 5.66; cell count, replicate 1 = 6974.
With knock-down of CG9114, the screen gave cell count, replicate 1 = 345.
With knock-down of CG31091, the record shows infection score, replicate 1 = 5.2; cell count, replicate 1 = 5194.
Against CCHa2-R #1, the entry reads infection score, replicate 1 = 6.79; cell count, replicate 1 = 6393.
CCHa2-R #2 gave infection score, replicate 1 = 4.56; cell count, replicate 1 = 6488.
For CG12780, the values are infection score, replicate 1 = 7.75; cell count, replicate 1 = 6526.
With knock-down of CG32112 the results were infection score, replicate 1 = 3.86; cell count, replicate 1 = 5987.
After knock-down of CG32712, the record shows infection score, replicate 1 = 3.32; cell count, replicate 1 = 6681.
beag showed infection score, replicate 1 = 9.16; cell count, replicate 1 = 5161.
Knock-down of CG14721 resulted in: infection score, replicate 1 = 21.4; cell count, replicate 1 = 5672.
Knock-down of CG16756 gave: infection score, replicate 1 = 1.45; cell count, replicate 1 = 6542.
With knock-down of ORMDL #1, the screen gave infection score, replicate 1 = 6.83; cell count, replicate 1 = 6095.
Knock-down of ORMDL #2 came out at: infection score, replicate 1 = 18.9; cell count, replicate 1 = 6138.

Copied from the list:
Value for CG14286 #2 in “cell count, replicate 1”: 342
Under “infection score, replicate 1”, CCHa2-R #2 is entered as 4.56
